Experimental data reported in patent US20090088377A1, “CYSTEIC ACID DERIVATIVES OF ANTI-VIRAL PEPTIDES” (priority 2007, published 2009).

What follows are substances tested on HIV-1 IIIB (assay: Anti-HIV efficacy evaluation in fresh human PBMCs (albumin conjugates vs original peptides)). Conditions: PBMC-based assay against HIV-1 IIIB, in words.
Type: cell-based
Protocol: HIV-1 IIIB was obtained through the AIDS Research and Reference Reagent Program, Division of AIDS, NIAID, NIH courtesy of Dr. Robert C. […] Fresh human peripheral blood mononuclear cells (PBMCs), seronegative for HIV and HBV, were isolated from blood of screened donors (Biological Specialty Corporation; Colmar, Pa.) using Lymphocyte Separation Medium (LSM; Cellgro® by Mediatech, Inc.; density 1.078+/−0.002 g/ml) following the manufacturer's instructions. Cells were stimulated by incubation in 4 μg/mL Phytohemagglutinin (PHA; Sigma) for 48-72 hours. Mitogenic stimulation was maintained by the addition of 20 U/mL recombinant human IL-2 (R&D Systems, Inc) to the culture medium. PHA-stimulated PBMCs from at least two donors were pooled, diluted in fresh medium and added to 96-well plates at 5×10^4 cells/well. Cells were infected (final MOI≅0.1) in the presence of 9 different concentrations of test compounds (triplicate wells/concentration) and incubated for 7 days. […] Following removal of supernatant samples, compound cytotoxicity was measured by the addition of 3-(4,5-dimethylthiazol-2-yl)-5-(3-carboxymethoxyphenyl)-2-(4-sulfophenyl)-2H-tetrazolium (MTS; CellTiter 96 Reagent, Promega) following the manufacturer's instructions. […] AZT (nucleoside reverse transcriptase inhibitor) was used as the assay control compound.
With “F preformed conjugate-Compound X: acetylated T-20 with C-terminal K(εN)-AEEA-MPA coupled to Cys34 of HSA” the “Antiviral activity compared to the original peptide inhibitors” value was “significant decrease in the antiviral activity”.
With “E preformed conjugate-Compound IX: HSA Cys34 coupled via MPA-AEEA to the N-terminal end of T-20” the “Antiviral activity compared to the original peptide inhibitors” value was “excellent retention of antiviral activity”.
For “C preformed conjugate-Compound VII: HSA Cys34 coupled via MPA, absence of AEEA linker, to the N-terminus of C34”, the “Antiviral activity compared to the original peptide inhibitors” value was “essentially equipotent to C34 peptide and T-20”.
